PubChem BioAssay AID624099 | ICCB-Longwood, 2012

- Test: 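Knock-downs relieving repression by E2 of an HPV18 LCR luciferase reporter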 (primary screen)
- Cells: human C33A cervical carcinoma cells (HPV-negative) stably expressing BPV1 E2 and an HPV18 LCR luciferase reporter
- Reagent: siRNA pool against human genes, 40 nM
- Duration: 72 h
- Measurement: 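Per-well luciferase luminescence, z-scored on each plate against the plate mean and SD with control wells left out, then averaged across three replicate plates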
- Reading the numbers: mean z-score and z-score: higher = stronger reporter signal, weaker E2 silencing
- Hit rule: 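Mean z ≥ 2 together with z ≥ 2 in two or more of the three replicates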
Shown is a random part of about 21,000 reagents tested. In the full data, 497 (2.4%) got an active call. 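Higher z means weaker E2 silencing; only reporter increases were scored, and knock-downs that hurt cell survival may mask genuine repressor factors.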 Entries without a mark were called inactive.

MCHR2 (melanin concentrating hormone receptor 2) scored mean z-score 0.86; z-score, replicate A = 0.92; z-score, replicate B = 0.87; z-score, replicate C = 0.8.
ORC4 (origin recognition complex subunit 4) showed mean z-score 0.18; z-score, replicate A = 0.12; z-score, replicate B = 0.54; z-score, replicate C = -0.12.
With knock-down of LOC388204 (retired record), the screen gave mean z-score 0.57; z-score, replicate A = 0.43; z-score, replicate B = 0.29; z-score, replicate C = 0.98.
OTP (orthopedia homeobox) showed mean z-score -1.52; z-score, replicate A = -1.79; z-score, replicate B = -1.48; z-score, replicate C = -1.28.
Depletion of RAET1E (retinoic acid early transcript 1E) resulted in: mean z-score 0.19; z-score, replicate A = -0.06; z-score, replicate B = 0.07; z-score, replicate C = 0.55.
Depletion of SH2D3C (SH2 domain containing 3C) came out at: mean z-score 2.41 (active); z-score, replicate A = 2.34; z-score, replicate B = 2.3; z-score, replicate C = 2.58.
With knock-down of CCNYL2 (cyclin Y like 2 (pseudogene)), the screen gave mean z-score -0.18; z-score, replicate A = -0.29; z-score, replicate B = 0.09; z-score, replicate C = -0.35.

2 entries from above, arranged by “z-score, replicate A”, highest first:
SH2D3C (SH2 domain containing 3C): mean z-score = 2.41 (active); z-score, replicate A = 2.34; z-score, replicate B = 2.3; z-score, replicate C = 2.58
RAET1E (retinoic acid early transcript 1E): mean z-score = 0.19; z-score, replicate A = -0.06; z-score, replicate B = 0.07; z-score, replicate C = 0.55

Additional records follow:
For IPO5 (importin 5), the entry reads mean z-score -0.2; z-score, replicate A = -0.12; z-score, replicate B = -0.27; z-score, replicate C = -0.2.
Against SATB2-AS1 (SATB2 antisense RNA 1), the entry reads mean z-score 0.56; z-score, replicate A = 0.71; z-score, replicate B = 0.56; z-score, replicate C = 0.41.
Knock-down of SCOC (short coiled-coil protein) gave: mean z-score 0.4; z-score, replicate A = 0.51; z-score, replicate B = 0.42; z-score, replicate C = 0.26.
CLASRP (CLK4 associating serine/arginine rich protein) showed mean z-score -0.37; z-score, replicate A = -0.3; z-score, replicate B = -0.4; z-score, replicate C = -0.41.
Silencing of HOOK3 (hook microtubule tethering protein 3) gave: mean z-score -2.41; z-score, replicate A = -2.5; z-score, replicate B = -2.84; z-score, replicate C = -1.89.
With knock-down of LOC400965 (retired record), the record shows mean z-score 1; z-score, replicate A = 0.94; z-score, replicate B = 0.89; z-score, replicate C = 1.17.
For SS18L2 (SS18 like 2), the values are mean z-score 1.94; z-score, replicate A = 2.53; z-score, replicate B = 1.91; z-score, replicate C = 1.39.
For CD47 (CD47 molecule), the values are mean z-score 0.91; z-score, replicate A = 1.42; z-score, replicate B = 0.63; z-score, replicate C = 0.69.
After knock-down of RPL27A (ribosomal protein L27a), the record shows mean z-score -2.05; z-score, replicate A = -1.99; z-score, replicate B = -2.14; z-score, replicate C = -2.03.
For TRIM52 (tripartite motif containing 52), the entry reads mean z-score -0.83; z-score, replicate A = -0.46; z-score, replicate B = -1.09; z-score, replicate C = -0.93.
After knock-down of COBLL1 (cordon-bleu WH2 repeat protein like 1), the record shows mean z-score -1.07; z-score, replicate A = -0.92; z-score, replicate B = -1.16; z-score, replicate C = -1.14.
Depletion of VARS1 (valyl-tRNA synthetase 1) gave: mean z-score -2.02; z-score, replicate A = -1.93; z-score, replicate B = -1.85; z-score, replicate C = -2.3.
After knock-down of COX11 (cytochrome c oxidase copper chaperone COX11) the results were mean z-score 0.92; z-score, replicate A = 0.97; z-score, replicate B = 0.79; z-score, replicate C = 0.99.
PLA2G10 (phospholipase A2 group X) showed mean z-score -0.86; z-score, replicate A = -1.07; z-score, replicate B = -0.85; z-score, replicate C = -0.65.
